PubChem BioAssay AID504761, Drosophila RNAi Screening Center, 2011

- Test: 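Insect host genes that dengue virus relies on to spread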 (primary screen)
- System: D.Mel-2 cells from Drosophila
- Reagent: long dsRNA against Drosophila genes
- Treatment: infection with dengue virus type 2; dose and infection time not stated
- Measurement: 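Per well on two replicate plates, imaging gave the percent of cells positive for viral envelope protein, ranked by infection, and a nuclear count of cells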
- Scale: infection score: higher = more virus-infected cells; cell count: higher = more cells in the well
- Rule for the call: 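Low infection ranks in the two replicates (chance level up to 0.065) followed by a retest with a 1.5-fold or larger significant decrease, p below 0.05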
- Meaning of the calls: active = confirmed: knock-down lowers infection; inactive = not picked or not confirmed
The screen tested about 22,000 reagents; below is a random part of those that have a named target and a result. In the full data, 116 (0.52%) are marked active. 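Calls depend on retest data that are not deposited; infection was ranked per plate without normalising between plates; the unit of the infection score is not given.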 The raw values are shown without normalisation. Unmarked entries are inactive. Not given: the amount of reagent, the time to read-out.

Gene,dsRNA,"infection score, replicate 1","infection score, replicate 2","cell count, replicate 1","cell count, replicate 2"
CG13707,DRSC08316,0.76 (active),0.57,5887,6139
CG4408,DRSC15574,12.9,21.4,6751,7283
CG3777,DRSC18489,7.36,2.37,6660,6412
CG3777,DRSC24661,7.76,1.36,6315,6342
Mhcl,DRSC13130,7.65,3.09,5488,4404
Mhcl,DRSC14216,15.1,5.25,5263,6766
Mhcl,DRSC16753,8.39,26.8,6495,3770
CG8086,DRSC03078,3.11,0.68,6339,6664
CG8086,DRSC03079,4.79,11.3,5947,5577
CG8086,DRSC27677,1.61,5.28,6850,6672
CG2260,DRSC18223,21.5,12.5,4689,5982
CG2260,DRSC28536,20.1,6.47,4735,1452
SMC1,DRSC16846,5.23,5.52,5828,6136
CG15247,DRSC17976,8.3,12.1,6129,5955
CG15247,DRSC24221,1.77,1.7,6037,6521
Psf3,DRSC18216,26.8,22.5,2531,3014
Psf3,DRSC21487,2.18,18,5647,5118
D19B,DRSC11134,1.09,0.73,5892,5726
D19B,DRSC25382,2.44,2.18,6434,6423
kcc,DRSC04316,53.9,42.7,5119,4300
kcc,DRSC04516,23,15.4,6542,6311
CG17562,DRSC15243,1.98,6.72,6456,6456
Bdbt,DRSC15218,7.42,6.58,6106,5580
CG42367,DRSC21388,3.48,1.64,6009,6717
CG42367,DRSC24728,3.01,5.97,6137,6210
tant,DRSC11401,0.68,2.7,6148,5844
Dnai2,DRSC10575,1.99,2.29,6181,6101
Bdp1,DRSC03192,7.72,7.01,6266,6292
Bdp1,DRSC28804,1.8,1.89,1386,1847
pot,DRSC19850,1.32,4.93,6289,6648
pot,DRSC26969,5.3,11.9,6099,7083
CG8248,DRSC07124,3.09,6.24,6337,6440
Liprin-alpha,DRSC02132,0.97,,926,474
Liprin-alpha,DRSC26919,19.7,4.45,6372,6856
CG4991,DRSC19928,2.18,13.2,6500,6436
RpL19,DRSC04649,15.6,3.34,1373,868
RpL19,DRSC28391,0.84,1.2,474,416
CG9485,DRSC04557,1.28,26.7,6571,5385
CG12682,DRSC17873,3.86,2.2,5914,5783
m,DRSC20181,3.06,0.72,6317,6127
m,DRSC29636,17.3,22.6,5695,6105
Vrp1,DRSC04148,18.2,44.6,5621,4452
Vrp1,DRSC26671,8.51,7.94,5923,6208
CG30154,DRSC05889,2.01,5.18,6303,6213
CG30154,DRSC26172,17.2,2.14,5665,6531
CG7601,DRSC14131,4.94,5.21,3038,6374
Nmda1,DRSC07479,6.06,9.64,6205,6195
Nmda1,DRSC26357,6.48,2.95,6034,6433
Dbp73D,DRSC11142,2.29,11.2,6123,5686
CG15579,DRSC18067,13.4,7.1,5856,6252
Spps,DRSC23206,3.97,1.55,7073,6915
CG11317,DRSC14299,1.53,2.94,5506,6264
CG7173,DRSC23252,16.3,17.7,6148,5335
CG7173,DRSC29453,12.8,15.9,5144,6047
CG33557,DRSC17854,0.81,1.7,6782,7072
enc,DRSC08716,1.03,1.39,6301,6497
enc,DRSC27545,3.57,2.67,6869,6826
tyf,DRSC18382,1.9,4.1,6267,903
tyf,DRSC26245,13.5,14.2,5143,5059
